According to patent US20060079497A1, “Lavendamycin analogues and methods of synthesizing and using lavendamycin analogues” (Ball State University, priority 2004, published 2006):

Target: T1, HIV reverse transcriptase (HIV-RT) (Human immunodeficiency virus type 1 group M subtype B, UniProt P04585)
T1 construct: 1 unit/mL of HIV-RT (Worthington Biochemical Corp., Freehold, N.J.); purchased Worthington Biochemical Corp., Freehold, N.J
Experiment: HIV-RT assay (3H-TTP incorporation, modified assay of Okada et al.)
Format: biochemical
Settings: read-out: IC50 against HIV-RT
Method: Briefly, the analogues were initially dissolved in either DMSO or HEPES buffer (pH 7.2) and then diluted to the appropriate concentration before addition to the assay mixtures. […] Several control wells without any inhibitors were also included on each microtiter plate. The reactions were allowed to proceed for 1 h at 37° C. […] A more detailed description of reaction conditions is provided below in the Examples. The concentration of drug which inhibited 50% of the enzyme activity (IC50) was determined by using the computer software program Calcusyn, which plots the dose-effect curves from the inhibition data and calculates the IC50 for each drug.
The assay procedure described below is adapted from Okada et al. (Okada, H.; Mukai, H.; Inouye, Y; Nakamura, S. “Biological Properties of Streptonigrin Derivatives II. Inhibition of Reverse Transcriptase Activity,” J. Antibiot., 1986, 39, 306-308). […] For each assay, the reaction mixture containing 8× buffer, double distilled H2O, ^3HTTP, template-primer and HIV-RT was pre-mixed in a 15-mL sterile tube in quantities required for the particular experiment. […] After drying the individual filter papers were added to 5 mL Scintiverse E (Fisher Scientific, Chicago, Ill.) scintillation fluid and the amount of 3H-TTP uptake measured as counts per minute on a Beckman liquid scintillation counter. […]

Substance “AZT-triphosphate [AZT-TP, reference compound]” has an IC50 of 12 nM.
